Pooled drug test results. Numbers come from NIAID ChemDB, via PubChem.

All rows: target-level tests; organism: Hepatitis C virus

Percent inhibition refers to the dose given; in toxicity tests it is the harm to the cells. An empty or dashed field is not shown. ICn: concentration for n% inhibition. a–b is a range or a potency band. Neighbouring rows are from separate reports.

structure	setting	protein	read by	strain	endpoint	tested at	value
C=CC1CC1(NC(=O)[C@@H]1C[C@@H](Oc2cc(-c3ccccc3)nc3cc(OC)ccc23)CN1C(=O)[C@@H](NC(=O)OC(C)(C)C)C(C)(C)C)C(=O)O		HCV NS3/NS4A protease			IC50		0.082 µM
NN1C(=O)/C(=C\c2ccc([N+](=O)[O-])cc2)SC1=S		NS5B polymerase			IC50		≤30 µM
O=C(O)CCN(CCC(c1ccccc1)c1ccccc1)C(=O)[C@@H](NC(=O)[C@@H]1CCCC[C@H]1C(=O)O)c1ccccc1		NS3/NS4A protease			IC50		22 µM
Cc1noc(C)c1S(=O)(=O)Nc1cc(-c2ccccc2)sc1C(=O)O		NS3 ATPase			IC50		5–20 µM
O=C1/C(=C\c2cccnc2)SC(=S)N1NS(=O)(=O)c1ccccc1		NS5B polymerase			IC50		≤30 µM
C=C[C@H]1CC1(NC(=O)[C@@H]1C[C@@H](Oc2cc(-c3ccc(OC)cc3)nc3cc(OC)ccc23)CN1C(=O)[C@@H](NC(=O)OC(C)(C)C)C(C)(C)C)C(=O)O		HCV NS3/NS4A protease			IC50		0.024 µM
CC[C@@H](C=O)NC(=O)[C@@H]1C[C@@H](NC(=O)N2CCOCC2)CN1C(=O)[C@@H](NC(=O)[C@@H](NC(=O)c1cnccn1)C(C)C)C(C)C		NS3 protease			Ki		1–100 µM
Cc1cc(S(=O)(=O)Nc2cc(-c3cc(C(F)(F)F)cc(C(F)(F)F)c3)sc2C(=O)O)c(C)cc1Cl		NS3 ATPase			IC50		>20 µM
CC[C@H](C)[C@H](NC(=O)[C@@H](NC(=O)[C@H](CCC(=O)O)NC(=O)[C@H](CC(=O)O)NC(C)=O)C(c1ccccc1)c1ccccc1)C(=O)N[C@@H](CC1CCCCC1)C(=O)N[C@@H](CS)C(N)=O		NS3/NS4A protease			IC50		3.1 µM
Cc1ccccc1S(=O)(=O)Nc1cc(-c2ccc(F)cc2)sc1C(=O)O		NS3 ATPase			IC50		<5 µM
CCC1CCC1(NC(=O)[C@@H]1C[C@@H](Oc2cc(-c3ccccc3)nc3cc(OC)ccc23)CN1C(=O)[C@@H](NC(=O)OC(C)(C)C)C(C)(C)C)C(=O)O		HCV NS3/NS4A protease			IC50		0.4 µM
Oc1cc(O)c2c(c1)OC(c1ccc(O)c(O)c1)C(O)C2		Replicase complex	SYBR Green	J4	inhibition	20 µM	17.7%
O=C(O)C(=O)CC(=O)c1cccc(NS(=O)(=O)c2cc(Cl)c(Cl)cc2Cl)c1		NS3 serine protease			IC50		0.049 µM
C[C@@]1(O)[C@H](O)[C@@H](COP(=O)(O)OP(=O)(O)OP(=O)(O)O)O[C@@]1(C#N)c1ccc2c(N)ncnn12		Nonstructural protein 5B	radiometric	2a JFH-1	IC50		1.3 µM
CC(C)N(C(=O)c1ccc(Cl)cc1Cl)c1cc(C2CCNCC2)sc1C(=O)O.O=C(O)C(F)(F)F		NS3 ATPase			IC50		>20 µM
Cn1ccnc1/C=C1/SC(=S)N(NS(=O)(=O)c2ccccc2)C1=O		NS5B polymerase			IC50		≤30 µM
Cc1ccccc1S(=O)(=O)Nc1cc(-c2ccc(F)c(F)c2)sc1C(=O)O		NS3 ATPase			IC50		<5 µM
CC(=O)N[C@@H](CC(=O)O)C(=O)N[C@@H](CCC(=O)O)C(=O)N[C@H](C(=O)N[C@@H](CCC(=O)O)C(=O)N[C@@H](CC1CCCCC1)C(=O)N[C@H](C=O)CC(F)F)C(c1ccccc1)c1ccccc1		NS3/NS4A protease			IC50		0.0005 µM
O=c1c(O)c(-c2ccc(O)c(O)c2)oc2cc(O)c(O)c(O)c12	genotype 1a	Replicase complex	SYBR Green	H77	IC50		2.8 µM
C=C[C@H]1CC1(NC(=O)[C@@H]1C[C@@H](Oc2cc(Cl)c3ccccc3n2)CN1C(=O)[C@@H](Nc1ccc(C(=O)OC(C)(C)C)cc1)C(C)(C)C)C(=O)O		HCV NS3/NS4A protease			IC50		3.2 µM
COc1cc(O)c2c(=O)c(OC)c(-c3ccc(OC)c(OC)c3)oc2c1		Replicase complex	SYBR Green	J4	inhibition	20 µM	14.5%
C=CC(=O)NCC(=O)N1C[C@H](Oc2nccc3ccc(Br)cc23)C[C@H]1C(=O)N[C@]1(C(=O)NS(=O)(=O)C2CC2)C[C@H]1C=C		Nonstructural protein 3/4A	FRET	1b C159S	IC50		0.685 µM
Cc1cccc(-c2cc(N(C(=O)c3ccc(Cl)cc3Cl)C(C)C)c(C(=O)O)s2)c1		NS3 ATPase			IC50		<5 µM
C=C(C)c1ccc2c(c1)nc(-c1ccc(OCc3cc(NC(=O)OC)ccc3-c3ccc(Cl)cc3)cc1)n2C1CCCCC1		NS3 serine protease			IC50		0.017 µM
CSCC[C@H](NC(=O)[C@H](CCC(=O)O)NC(=O)[C@@H](CC(=O)O)NC(C)=O)C(=O)N[C@@H](CCC(=O)O)C(=O)N[C@@H](CCC(=O)O)C(=O)N[C@@H](CS)C(=O)O		NS3/NS4A protease			IC50		1 µM
CC[C@H](C)[C@H](NC(=O)[C@@H](NC(=O)[C@H](CCC(=O)O)NC(=O)[C@H](CC(=O)O)NC(C)=O)C(c1ccccc1)c1ccccc1)C(=O)N[C@@H](CC1CCCCC1)C(=O)N[C@@H](CS)C(N)=O		NS3/NS4A protease			IC50		3.1 µM
COc1ccc2c(O[C@@H]3C[C@H]4C(=O)N[C@]5(C(=O)O)CC5/C=C\CCCCC[C@H](NC(=O)OC(C)(C)C)C(=O)N4C3)cc(-c3csc(NC(C)C)n3)nc2c1		NS3 serine protease			Ki		<0.05 µM
Cc1cc(S(=O)(=O)Nc2cc(-c3ccc(F)cc3)sc2C(=O)O)c(C)cc1Cl		NS3 ATPase			IC50		<5 µM
CC(=O)N[C@@H](CCC(=O)O)C(=O)N[C@@H](CC(C)C)C(=O)N[C@@H](CCC(=O)O)C(=O)N[C@@H](CC1CCCCC1)C(=O)N[C@@H](CS)C(=O)O		NS3/NS4A protease			IC50		2.6 µM
CC[C@@H](C=O)NC(=O)[C@@H]1C[C@@H](OCc2ccccc2)CN1C(=O)[C@@H](NC(=O)c1c(C)cccc1C)C(C)C		NS3 protease			Ki		>100 µM
CC(=O)N[C@@H](CC(=O)O)C(=O)N[C@@H](CCC(=O)O)C(=O)N[C@H](C(=O)N[C@@H](CCC(=O)O)C(=O)N[C@H](C(=O)O)C1CCCCC1)C(c1ccccc1)c1ccccc1		NS3/NS4A protease			IC50		117 µM
CC[C@H](C)[C@H](NC(=O)[C@H](CC(C)C)NC(=O)[C@@H](CCC(=O)O)NC(=O)[C@H](CC(=O)O)NC(C)=O)C(=O)N[C@@H](CC1CCCCC1)C(=O)N[C@@H](CS)C(=O)O		NS3/NS4A protease			IC50		0.015 µM
CC(C)[C@H](NC(=O)OC(C)(C)C)C(=O)N1C[C@H](Oc2ccnc3cc(Cl)ccc23)C[C@H]1C(=O)NC1(C(=O)O)CCC1		HCV NS3/NS4A protease			IC50		5.8 µM
CC(C)N(C(=O)c1cc2c(Cl)cc(Cl)cc2[nH]1)c1cc(-c2ccccc2)sc1C(=O)O		NS3 ATPase			IC50		<5 µM
CCOP(=O)(OCC)[C@H](CC)NC(=O)[C@@H]1C[C@@H](OCc2ccccc2)CN1C(=O)[C@@H](NC(=O)[C@@H](NC(=O)c1cnccn1)C(C)C)C(C)C		NS3 protease			Ki		>100 µM
CC[C@H](C)[C@H](NC(=O)[C@@H](NC(=O)[C@H](CCC(=O)O)NC(=O)[C@H](CC(=O)O)NC(C)=O)C(c1ccccc1)c1ccccc1)C(=O)N[C@@H](CC1CCCCC1)C(=O)N[C@@H](CS)C(=O)O		NS3/NS4A protease			IC50		0.06 µM
O=C1/C(=C\c2ccc(Cl)cc2Cl)SC(=S)N1NS(=O)(=O)c1ccccc1		NS5B polymerase			IC50		≤30 µM
CC(C)CN(Cc1ccc(C(F)(F)F)cc1)c1cc(-c2ccccc2)sc1C(=O)O		NS3 ATPase			IC50		5–20 µM
Nc1ccn([C@@H]2O[C@H](OP(=O)(O)OP(=O)(O)OP(=O)(O)O)C[C@H]2O)c(=O)n1		NS3 serine protease			IC50		0.036 µM
N#Cc1ccc(/C=C2/SC(=S)N(NS(=O)(=O)c3ccccc3)C2=O)cc1		NS5B polymerase			IC50		≤30 µM
C=C1CC(NC(=O)[C@@H]2C[C@@H](Oc3cc(-c4ccccc4)nc4cc(OC)ccc34)CN2C(=O)[C@@H](NC(=O)OC(C)(C)C)C(C)(C)C)(C(=O)O)C1		HCV NS3/NS4A protease			IC50		0.6 µM
CC[C@@H](C=O)NC(=O)[C@@H]1C[C@@H](NS(=O)(=O)c2ccccc2)CN1C(=O)[C@@H](NC(=O)[C@@H](NC(=O)c1cnccn1)C(C)C)C(C)C		NS3 protease			Ki		1–100 µM

The last 3 rows once more:

structure | setting | protein | read by | strain | endpoint | tested at | value
N#Cc1ccc(/C=C2/SC(=S)N(NS(=O)(=O)c3ccccc3)C2=O)cc1 |  | NS5B polymerase |  |  | IC50 |  | ≤30 µM
C=C1CC(NC(=O)[C@@H]2C[C@@H](Oc3cc(-c4ccccc4)nc4cc(OC)ccc34)CN2C(=O)[C@@H](NC(=O)OC(C)(C)C)C(C)(C)C)(C(=O)O)C1 |  | HCV NS3/NS4A protease |  |  | IC50 |  | 0.6 µM
CC[C@@H](C=O)NC(=O)[C@@H]1C[C@@H](NS(=O)(=O)c2ccccc2)CN1C(=O)[C@@H](NC(=O)[C@@H](NC(=O)c1cnccn1)C(C)C)C(C)C |  | NS3 protease |  |  | Ki |  | 1–100 µM